Laboratory results published in patent US3945994A, “Novel acid compounds” (Gist-Brocades N.V., priority 1973, dated 1976).
In brackets after ≈: the same amount, converted by molar mass.

Tests used:
Assay in all cases: agar serial dilution test, MIC
Details in all cases: 24 hours at 37°C
[1] = system: Streptococcus haemolyticus A 266; type: cell-based
Proteus morganii 2241 = type: cell-based
[2] = system: Streptococcus faecalis L 80; type: cell-based
Proteus rettgeri A 821 = type: cell-based
[3] = system: Staphylococcus aureus A 2000; type: cell-based
[4] = system: Salmonella typhimurium R 127; type: cell-based
[5] = system: Diplococcus pneumoniae L 54; type: cell-based
[6] = system: Klebsiella pneumoniae A 809; type: cell-based
Proteus mirabilis H 3 = type: cell-based
[7] = system: Staphylococcus aureus A 321; type: cell-based
[8] = system: Staphylococcus aureus A 2001; type: cell-based
[9] = system: Pseudomonas aeruginosa H 10; type: cell-based
Escherichia coli U 20 = type: cell-based
[10] = system: Pseudomonas aeruginosa Wyeth A 1058; type: cell-based
[11] = system: Pseudomonas aeruginosa 2396; type: cell-based
[12] = system: Staphylococcus aureus A 355'; type: cell-based
[13] = system: Brucella melitensis A 488
Proteus mirabilis L 93 = system: Proteus mirabilis L 93
[14] = system: Pasteurella multocida A 723; type: cell-based
Salmonella dublin P 43 = type: cell-based
Proteus mirabilis A 1200 = type: cell-based
Shigella equirulis T 3 = system: Shigella equirulis T 3

Row | SMILES | MIC [1] [µg/mL] | MIC (Proteus morganii 2241) [µg/mL] | MIC [2] [µg/mL] | MIC (Proteus rettgeri A 821) [µg/mL] | MIC [3] [µg/mL] | MIC [4] [µg/mL] | MIC [5] [µg/mL] | MIC [6] [µg/mL] | MIC [7] [µg/mL] | MIC [8] [µg/mL] | MIC [9] [µg/mL] | MIC (Escherichia coli U 20) [µg/mL] | MIC [10] [µg/mL] | MIC [11] [µg/mL] | MIC [12] [µg/mL] | MIC [13] [µg/mL] | MIC (Proteus mirabilis L 93) [µg/mL] | MIC [14] [µg/mL] | MIC (Salmonella dublin P 43) [µg/mL] | MIC (Shigella equirulis T 3) [µg/mL] | other results
1 | CC1(C)S[C@@H]2[C@H](NC(=O)[C@H](NC(=S)NP(=O)(Oc3ccccc3)Oc3ccccc3)c3ccccc3)C(=O)N2[C@H]1C(=O)O | 0.12 (≈ 0.187 µM) | > 100 | 50 (≈ 78 µM) | 25 (≈ 39 µM) | 25 (≈ 39 µM) | 100 (≈ 156 µM) | 0.5 (≈ 0.78 µM) | 100 (≈ 156 µM) | 0.25 (≈ 0.39 µM) | 3 (≈ 4.68 µM) | > 100 | 100 (≈ 156 µM) | 100 (≈ 156 µM) | 100 (≈ 156 µM) | 25 (≈ 39 µM) | 0.25 (≈ 0.39 µM) | 3 (≈ 4.68 µM) |  |  |  | MIC (Proteus mirabilis H 3): 25 µg/mL (≈ 39 µM)
2 | CN(C)P(=O)(NC(=S)N[C@@H](C(=O)N[C@@H]1C(=O)N2[C@@H]1SC(C)(C)[C@@H]2C(=O)O)c1ccccc1)N(C)C | 0.12 (≈ 0.221 µM) | 100 (≈ 184 µM) |  | 1.5 (≈ 2.76 µM) |  | 50 (≈ 92.1 µM) | 0.5 (≈ 0.921 µM) |  | 1.5 (≈ 2.76 µM) | 3 (≈ 5.53 µM) | > 100 | 50 (≈ 92.1 µM) | 25 (≈ 46.1 µM) | 25 (≈ 46.1 µM) |  | 1.0 (≈ 1.84 µM) | 1.5 (≈ 2.76 µM) | 1.5 (≈ 2.76 µM) | 25 (≈ 46.1 µM) | 3 (≈ 5.53 µM) | MIC (Proteus mirabilis A 1200): 6 µg/mL (≈ 11.1 µM)
3 | CN(C)P(=O)(NC(=O)N[C@@H](C(=O)N[C@@H]1C(=O)N2[C@@H]1SC(C)(C)[C@@H]2C(=O)O)c1ccccc1)N(C)C | 0.06 (≈ 0.114 µM) | 100 (≈ 190 µM) | 6 (≈ 11.4 µM) | 3 (≈ 5.7 µM) |  | 50 (≈ 95 µM) | 1.5 (≈ 2.85 µM) | 100 (≈ 190 µM) | 1 (≈ 1.9 µM) | 6 (≈ 11.4 µM) | > 100 | 50 (≈ 95 µM) | 50 (≈ 95 µM) | 50 (≈ 95 µM) | 25 (≈ 47.5 µM) | 0.12 (≈ 0.228 µM) | 3 (≈ 5.7 µM) | 0.5 (≈ 0.95 µM) |  | 3 (≈ 5.7 µM) | MIC (Proteus mirabilis H 3): 25 µg/mL (≈ 47.5 µM); MIC (Proteus mirabilis A 1200): 25 µg/mL (≈ 47.5 µM)
4 | CC1(C)S[C@@H]2[C@H](NC(=O)[C@H](NC(=O)NP(=O)(c3ccccc3)c3ccccc3)c3ccccc3)C(=O)N2[C@H]1C(=O)O | 0.03 (≈ 0.0506 µM) | > 100 | 3 (≈ 5.06 µM) | 3 (≈ 5.06 µM) | 3 (≈ 5.06 µM) | 25 (≈ 42.2 µM) | > 100 | 50 (≈ 84.4 µM) | 0.8 (≈ 1.35 µM) | 1.5 (≈ 2.53 µM) | 100 (≈ 169 µM) |  | 50 (≈ 84.4 µM) | 50 (≈ 84.4 µM) | 6 (≈ 10.1 µM) | 0.8 (≈ 1.35 µM) | 6 (≈ 10.1 µM) | 0.8 (≈ 1.35 µM) | 6 (≈ 10.1 µM) | 3 (≈ 5.06 µM) | 
5 | CC1(C)S[C@@H]2[C@H](NC(=O)[C@H](NC(=O)NP(=O)(Oc3ccccc3)Oc3ccccc3)c3ccccc3)C(=O)N2[C@H]1C(=O)O | 0.05 (≈ 0.08 µM) | 50 (≈ 80 µM) | 0.25 (≈ 0.4 µM) | 6 (≈ 9.61 µM) | 3 (≈ 4.8 µM) | 50 (≈ 80 µM) | 0.06 (≈ 0.0961 µM) | 25 (≈ 40 µM) | 0.06 (≈ 0.0961 µM) | 0.25 (≈ 0.4 µM) | > 100 | 50 (≈ 80 µM) | 50 (≈ 80 µM) | 50 (≈ 80 µM) | 6 (≈ 9.61 µM) | 0.03 (≈ 0.048 µM) | 3 (≈ 4.8 µM) | 3 (≈ 4.8 µM) | 25 (≈ 40 µM) | 0.12 (≈ 0.192 µM) | 
